Data as given in PubChem BioAssay AID1259414 (Drosophila RNAi Screening Center, 2018)

Test: 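Fly genes that alter Wolbachia amount inside host cells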 (primary screen)
Cells: Drosophila JW18 cells infected with Wolbachia
Reagents: long dsRNA against Drosophila genes, 0.25 µg dsRNA per well of a 384-well plate
Timing: 5 days
Conditions: cells persistently infected with Wolbachia before knock-down; no added drug
Measurement: 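Imaged fluorescence in situ signal for Wolbachia 23S rRNA per DAPI-counted host cell, given as a robust z-score within each plate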
Scale: Wolbachia per cell robust z: higher = more Wolbachia per host cell than the plate typical
Active means: 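Hit when robust z is 1.5 or more, or -1.5 or less, in at least two of three replicates; excludes dsRNAs with several or no targets, genes not expressed in JW18 and well A1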
The screen tested about 24,000 reagents; this is a random part of those that have a named target and a result. Over the whole deposit, about 1,210 (5%) are marked active. 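Inactive calls also include excluded dsRNAs with several or no targets, genes unexpressed in JW18, and well A1, regardless of score.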 Entries without a mark were called inactive. A plus sign joins genes that one reagent is predicted to hit. Reagent sequences are not shown.

no.	target gene	PubChem SID	Wolbachia per cell robust z, rep 1	Wolbachia per cell robust z, rep 2	Wolbachia per cell robust z, rep 3
1	CG10171	SID104189503	-7.39	-0.243	-0.886
2	CG10171	SID104204823	-1.79	0.0911	1.96
3	CG3927	SID104184225	0.389	-5.62	-4.43
4	CG3927	SID104202172	0.518	-0.581	-1.31
5	Gr64d + Gr64e	SID104188238	-1.88	-1.64	-0.183
6	Usp15-31	SID104184218	0.0426	-1.06	0.693
7	Usp15-31	SID104203532	-0.394	-0.192	0.0723
8	CG8312	SID104196198	-5.37	-1.49	0.298
9	CG42728	SID104218880	-1.6	0.856	-0.669
10	CG9316	SID104182987	0.608	0.615	-0.646
11	Ir94c	SID104193331	0.406	1.17	-0.912
12	CG8292	SID104182874	0.639	0.565	2.04
13	5-HT2B	SID104196152	0.714	0.227	0.357
14	5-HT2B	SID104196154	-1.09	0.718	0.794
15	5-HT2B	SID104204122	-0.339	-0.467	-0.954
16	5-HT2B	SID104218834	0.319	-0.698	0.254
17	5-HT2B	SID104218835	1.14	-2.36	0.41
18	Srp54k	SID104191081	2.53 (active)	0.991	1.7
19	Srp54k	SID104218932	0.987	1.53	0.293
20	TMEM216	SID104196170	0.443	0.21	0.75
21	TMEM216	SID104204128	-0.171	0.646	-0.66
22	wnd	SID104190838	0.191	-0.276	0.768
23	wnd	SID104201144	-0.999	0.0856	-0.775
24	CG10934	SID104185809	0.931	-0.0669	-0.136
25	Or24a	SID104180560	0.0501	0.384	-0.447
26	fidipidine	SID104187410	-0.265	-1.11	-0.01
27	fidipidine	SID104203940	-0.296	-0.791	-0.736
28	TwdlL	SID104195834	0.159	-0.778	-0.275
29	TwdlL	SID104219026	0.163	0.593	-1.1
30	Eo	SID104199979	0.259	-0.336	-0.343
31	Eo	SID104204673	0.172	0.841	-0.217
32	CG3984	SID104195322	0.0485	-6.65	-1.24
33	B9d1	SID104194785	-4.22	-0.098	-0.0205
34	sca	SID104187469	0.593	0.177	0.943
35	sca	SID104208059	-0.979	0.366	0.692
36	AOX1	SID104195131	-0.134	-0.749	-0.741
37	AOX1	SID104207778	0.4	0.138	-1.83
38	CG34141	SID104216178	0.447	-0.0694	0.551
39	sip1	SID104183401	0.437	0.394	0.47
40	sip1	SID104202051	-1.4	-0.264	-0.0845
41	sip1	SID104206325	0.88	0.37	1.75
42	Tdg	SID104196911	1.42	1.18	-0.275
43	Tdg	SID104196961	-1.13	-0.196	0.245
44	Tdg	SID104216258	0.0762	0.948	2.79
45	borr	SID104218808	1.28	0.91	-0.302
46	CG34457	SID104186716	-0.833	-0.639	-2
47	CG5966	SID104198186	-0.533	-12	-7.08
48	CG32579	SID104199664	1.55	1.13	0.493
49	CG14659	SID104192037	0.249	1.03	0.634
50	CG3323	SID104198095	0.717	-1.62	-1.18
51	Pdk	SID104187296	-1.07	-7.4	0.532
52	Atf6	SID104184535	1.67	0.673	0.875
53	Atf6	SID104184681	0.38	0.482	-0.36
54	Atf6	SID104207480	-0.176	-1.04	-0.91
55	IRSp53	SID104190683	1.52	1.58	1.44
56	CG12493	SID104188071	-0.442	-0.933	-3.55
57	CG12493	SID104204080	-1.13	0.0398	0.0703
58	DptA	SID104187196	-0.183	-0.17	0.644
59	DptA	SID104218412	0.92	1.49	1.06
60	prel	SID104187063	-0.157	-0.0917	1.02
61	schuy	SID104190076	0.672	1.62	-0.243
62	schuy	SID104206728	1.04	-0.0389	-0.989
63	CG31922	SID104201380	-1.53	0.0998	0.166
64	CG31922	SID104205077	1.51	1.2	0.902
65	CG14191	SID104199338	0.00363	0.316	0.0664
66	CG14191	SID104203863	0.246	-0.859	-0.723
67	ninaD	SID104182678	0.391	-3.64	-0.166
68	ninaD	SID104203223	-1.03	-0.856	-1.27
